Positions count from the first letter of the chain named. Human monoclonal antibodies against the spike receptor-binding domain (heavy:light variable regions). IC50 against pseudoviruses bearing the spike of naturally observed variants; lower = stronger; >10 µg/ml means not reached at the top dose. No active / inactive call. The stated detection limit is 0.0005 µg/ml; values near or below 0.001 µg/ml lie at the floor of the assay.
B1: DH1214 (protein)
chain 1: QVQLVQSGAEVKKPGSSVKVSCKASGGTFRSYAISWVRQAPGQGLEWMGRIIPMFGIANYAQKFQDRVTITADKSTSTAYMELSSLRSEDTAVYYCAENLQDDSGTLYSGGWGQGTLVTVSS
chain 2: QTVVTQEPSLTVSPGGTVTLTCASSTGAVTSGYYPNWFQQKPGQAPRALIYSTSNKHSWTPARFSGSLLGGKAALTLSGVQPEDEAEYYCLLYYGGASGWVFGGGTKLTVL
B2: BD56-647 (protein)
chain 1: QVQLVQSGAEVKRPGSSVKVSCRASGGTFSSNPISWVRQAPGQGLEWVGGIIPIFDTTNYAQRFQGRVTITADESTGTAYMELSSLRSEDTAFYYCTRGNDYGDPLGYYYAMDVWGPGTTVTVSS
chain 2: QSVLTQPPSVSGAPGQRVTISCTGSSSNIGAGYDVHWYQQFPGTAPKLLIFGNANRPSGVPDRFSGSKSGTSASLAITGLQAEDEADYYCQSYDSSLSDVVFGGGTKLTVL
B3: BD56-636 (protein)
chain 1: QVHLVESGGGVVQPGRSLRLSCAASGFTFSDYAMHWVRQAPGKGLGWVALVSFDGSITYYADSVKGRFTISRDNSKNTLYLQMNRLRAEDTAVYYCASSVSGWDGFDIWGQGTMVTVSS
chain 2: EIVLTQSPDFQSVTPKEKVTITCRASQSIGSSLHWYQQKPDQSPKLLIKYASQSISGVPSRFSGSGSGTDFTLTINSLEAEDAATYYCHQSSSFPFTFGPGTKVDIK
B4: TAU-1109 (protein)
chain 1: QVQLVQSGPEVKKPGASVKVSCKASGYTFTSYSINWVRQAPGQGLEWMGWISTYNGNTNYAQRLQGRVTMTTDTSTGTAHMELRSLRSDDTAIYYCAREEPLYCSGGSCYEFQHWGQGTLVTVSS
chain 2: EIVLTQSPARLSLSPGERATLSCRASQSVSSDLAWYQQKPGQAPRLLIYDASHRATGIPARFSGSGSGTDFTLTISSLEPEDFAVYYCQQRINWPPIFTFGPGTKVDIK
B5: BD56-661 (protein)
chain 1: QVQLVQSGAEVKKPGASVKVSCKASGFTFSAYYVHWVRQAPGQGLEWMGIINPSGTSYAQKFQGRVTMTRDTSTSTVYMELSSLTSEDTAVYYCAREIPPPLGNTWFDPWGQGTLVTVSS
chain 2: SYVLTQPHSVSVAPGKTARITCGGNDIGSKSVHWYQQKPGQAPVLVVHDDNDRPSGIPERFSGSNSANTATLTISRVEAGDEADFYCQVWDGSRDPVVFGGGTKLTVL
B6: BD56-639 (protein)
chain 1: QVQLVESGGGVVQPGRSLRLSCEASGFTFSSQAMHWVRQAPGKGLEWVAVIWSDGRSTHYADSVQGRFTISRDNSKNTLYLQMNRLRAEDTAVYYCARDASTATLLVSWFDPWGQGTLVTVSS
chain 2: DVQMTQSPSSLSASVGDRVTITCRASQSISTHLNWYQQKPGKAPTLLIYASSSLQSGVPSRFSGSGSGTDFTLTISSLQPEDFATYYCQQSHITPPWTFGQGTKVEIK
B7: BD56-634 (protein)
chain 1: QVQFVQSGAEVKKPGASVKLSCKASGYTFTQFAIHWVRQAPGQRLEWMGWINTANDNTKYSPRFLGRVTFTRDISATTVYMDLNSLTSEDTAVYYCARGLGYGELGPNFYFYYYMDVWGKGTTVTVSS
chain 2: QSVVTQSPSASGTPGQRVTISCSGTSSNIGSHYVYWYQQFPGTAPKLLIYSNSQRPSGVPDRFSGSKSGTSASLAISGLRSEDEADYYCAVWDGTLSGNWVFGGGTKLTVL
B8: BD56-657 (protein)
chain 1: QMQLVQSGPEVKKPGTSVKVSCKASGFTFSKSAVQWVRQARGQRLEWIGWIVVGSGDTDYAQKLQGRLTITRDMSTDTAYMEISSLRSEDTAVYYCAAPSCNNTICYDGFNIWGQGTMVSVSS
chain 2: EIVLTQSPGTLSFSPGQRATLSCRASQSVSSNYLGWYQQKPGQAPRLLIYGASSRATGIPDRFSGSGSRTDFTLSISRLEPEDFAVYYCQYYRTSPFTFGPGTKVDLK
B9: BD56-663 (protein)
chain 1: QVQLVESGGGVVQPGRSLRLSCAASGFTFIRNAMHWVRQAPGKGLEWVALMSHDGSTKYYADSVKGRFTISRDNSKNTLYLQMTSLRVEDTAVYYCANQPDSSGYYYPGYLDYWGQGTLVTVSS
chain 2: SYVLTQPPSVSVAPGQTARITCGGDSIGSKNVHWYQQRPGQAPVVVVYYDTDRPSGIPERFSGSNSGNTATLSISRVEAGDEADYYCQVWDSTPDPVVFGGGTKLTVL
B10: BD56-648 (protein)
chain 1: QVQLQESGPGLVKPSQTLSLTCTVSSVSISSADYYWSWIRQPPGKGLEWIGNIYYSGSTFYNPSLKSRLTISLDTSKNKFSLKVNSVTVADTAVYYCARGGPRVFYDVLTGDQSYYYYGMDVWGQGTTVTVSS
chain 2: QSALTQPASVSGSPGQSITISCTGTSSDIGGYNSVSWYQQHPGKAPKLMIYDVTKRPSGVSIRFSGSKSGNTASLTISGLQAEDEAAYYCSSYISSSLWVFGGGTKLTVL
B11: BD56-651 (protein)
chain 1: QVQLVESGGGVVQPGRSLRLSCAASGFTFSSYGMHWVRQAPGKGLEWVAVISYDGINQYYADSVKGRFTISRDNSKNTLYLQMNSLRAEDTAVYYCANPPYYDFWRGYYVVGTHETAMDVWGQGTTVTVSS
chain 2: B10 chain 2 with I29V, S34F, T54S, I62N, A87D, I94S, L98T, K106Q
B12: BD56-656 (protein)
chain 1: EVQLVQSGAEVKKPGDSLKISCKTSGYTFTAYCIGWVRQMPGKGLEWMGIVYPSDSKTRYSPSFQGQVTMSADKSITTAYLQWSSLKASDTAMYYCARIAGEPPDFFDYWGQGTLVTVSS
chain 2: SYVLTQTPSVSVAPGKTARITCGGNDIGSKSVQWYQQKPGQAPVMVIYYDSDRPSGIPERFSGSNSGNTATLTISRVEAGDEADYYCQVWDGSSGLFYVFGSGTKVTVL

Each binder was assayed against SARS-CoV-2 Omicron BA.1 spike pseudovirus (assay: pseudovirus neutralization IC50; higher = weaker neutralization).
Procedure: (§1)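 Single-round VSV luciferase pseudovirus mixed with antibody dilutions for 1 h and put on Huh-7 cells for about a day; IC50 from the dose curve.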

Row | Binder | pseudovirus neutralization IC50
1 | B1 | > 10 µg/mL
2 | B2 | 0.521 µg/mL
3 | B3 | 2.08 µg/mL
4 | B4 | 5.88 µg/mL
5 | B5 | > 10 µg/mL
6 | B6 | > 10 µg/mL
7 | B7 | 0.0156 µg/mL
8 | B8 | 0.00129 µg/mL
9 | B9 | > 10 µg/mL
10 | B10 | 5.42 µg/mL
11 | B11 | 0.29 µg/mL
12 | B12 | > 10 µg/mL

Each binder was assayed against SARS-CoV-2 Omicron BA.2 spike pseudovirus in the same assay as above.
Procedure: as §1

Row | Binder | pseudovirus neutralization IC50
13 | B1 | > 10 µg/mL
14 | B2 | 0.712 µg/mL
15 | B3 | 1.42 µg/mL
16 | B4 | 4.75 µg/mL
17 | B5 | > 10 µg/mL
18 | B6 | > 10 µg/mL
19 | B7 | 0.00821 µg/mL
20 | B8 | 0.000765 µg/mL
21 | B9 | > 10 µg/mL
22 | B10 | 4.79 µg/mL
23 | B11 | 0.549 µg/mL
24 | B12 | > 10 µg/mL

Each binder was assayed against SARS-CoV-2 Omicron BA.2.75 spike pseudovirus in the same assay as above.
Procedure: as §1

Row | Binder | pseudovirus neutralization IC50
25 | B1 | > 10 µg/mL
26 | B2 | 0.786 µg/mL
27 | B3 | 2.78 µg/mL
28 | B4 | 2.22 µg/mL
29 | B5 | > 10 µg/mL
30 | B6 | > 10 µg/mL
31 | B7 | 0.0121 µg/mL
32 | B8 | 0.00248 µg/mL
33 | B9 | > 10 µg/mL
34 | B10 | 5.34 µg/mL
35 | B11 | 0.596 µg/mL
36 | B12 | > 10 µg/mL

Each binder was assayed against SARS-CoV-2 Omicron BA.5 spike pseudovirus in the same assay as above.
Procedure: as §1

Row | Binder | pseudovirus neutralization IC50
37 | B1 | > 10 µg/mL
38 | B2 | 3.06 µg/mL
39 | B3 | 1.35 µg/mL
40 | B4 | > 10 µg/mL
41 | B5 | > 10 µg/mL
42 | B6 | > 10 µg/mL
43 | B7 | > 10 µg/mL
44 | B8 | 4.54 µg/mL
45 | B9 | > 10 µg/mL
46 | B10 | 5.59 µg/mL
47 | B11 | > 10 µg/mL
48 | B12 | > 10 µg/mL

What follows are binders tested against SARS-CoV-2 Omicron BQ.1.1 spike pseudovirus in the same assay as above.
Procedure: as §1

Row | Binder | pseudovirus neutralization IC50
49 | B1 | > 10 µg/mL
50 | B2 | > 10 µg/mL
51 | B3 | 1.82 µg/mL
52 | B4 | > 10 µg/mL
53 | B5 | > 10 µg/mL
54 | B6 | > 10 µg/mL
55 | B7 | > 10 µg/mL
56 | B8 | > 10 µg/mL
57 | B9 | > 10 µg/mL
58 | B10 | 6.08 µg/mL
59 | B11 | > 10 µg/mL
60 | B12 | > 10 µg/mL

The binders below were run against SARS-CoV-2 Omicron XBB spike pseudovirus in the same assay as above.
Procedure: as §1

Row | Binder | pseudovirus neutralization IC50
61 | B1 | > 10 µg/mL
62 | B2 | > 10 µg/mL
63 | B3 | 2.18 µg/mL
64 | B4 | > 10 µg/mL
65 | B5 | > 10 µg/mL
66 | B6 | > 10 µg/mL
67 | B7 | > 10 µg/mL
68 | B8 | > 10 µg/mL
69 | B9 | > 10 µg/mL
70 | B10 | 5.69 µg/mL
71 | B11 | > 10 µg/mL
72 | B12 | > 10 µg/mL

Each binder was assayed against SARS-CoV-2 early D614G spike pseudovirus in the same assay as above.
Procedure: as §1

Row | Binder | pseudovirus neutralization IC50
73 | B1 | 0.0577 µg/mL
74 | B2 | 0.812 µg/mL
75 | B3 | 2.83 µg/mL
76 | B4 | 2.71 µg/mL
77 | B5 | 4.38 µg/mL
78 | B6 | > 10 µg/mL
79 | B7 | 0.0202 µg/mL
80 | B8 | 0.00244 µg/mL
81 | B9 | > 10 µg/mL
82 | B10 | 1.72 µg/mL
83 | B11 | > 10 µg/mL
84 | B12 | > 10 µg/mL
